A mixed list of measured activities; the numbers were collected in NIAID ChemDB.

Shared fields: growth or infection tests; organism: Aspergillus fumigatus

ECn: concentration that inhibits the pathogen or its effect by n%. Rows are shuffled and stem from different studies. An empty or dashed field is not shown. Zones are inhibition diameters on agar. MIC50, MIC90 and the like: level of inhibition, or share of isolates inhibited. Two numbers with a dash give a range or band.

smiles,method,setting,strain or isolate,dose,measure,result
COC(=O)C(C(=O)OC)C(CC(=O)c1ccccc1)c1ccccc1,,,ATCC 26934,,MIC,>50 µg/mL
C[N+]1=CC2C(=O)c3nccc4ccnc(c34)C2C1,,,,,MIC80,>64 µg/mL
CC[C@@H]([C@H](C)O)n1ncn(-c2ccc(N3CCN(c4ccc(OC[C@@H]5CO[C@@](Cn6cncn6)(c6ccc(F)cc6F)C5)cc4)CC3)cc2)c1=O,,,,,MIC50,16 µg/mL
COc1ccc(NS(=O)(=O)c2ccc(N)cc2)nn1,,,20 isolates,,Geometric mean MIC,59.4 µg/mL
CC[C@@H]1C[C@@]2(CC)O/C(=C\C(=O)OC)[C@@]3(CC)[C@H](CC)[C@]1(C)[C@@]23C,broth dilution,clinical isolate,,,MIC80,13.1 µM
Cc1cc(NS(=O)(=O)c2ccc(N)cc2)no1,,,20 isolates,,Geometric mean MIC,19.3 µg/mL
CC(=O)OC[C@H]1O[C@@H](Sc2nnc(-c3cccnc3)n2/N=C/c2ccc(C)cc2)[C@H](OC(C)=O)[C@@H](OC(C)=O)[C@@H]1OC(C)=O,agar diffusion / agar,,,1 mg/mL,zone,1–5 mm
O=S(=O)(O)CCNCl,,,ATCC 16424,,MIC90,37.8 µM
COc1ccc(C(=O)/C=C/c2ccc3ccccc3c2)c(OC)c1,,,ATCC 26934,,MIC,>50 µg/mL
COc1cc(O)c2c(c1)C1OC(=O)C[C@]1(C)OC2=O,resazurin,,CGMCC 3.5835,,EC50,>250 µM
CC(=O)OC[C@H]1O[C@@H](n2[nH]c(-c3ccccc3)[n+](/N=C/c3ccc(C)cc3)c2=S)[C@H](OC(C)=O)[C@@H](OC(C)=O)[C@@H]1OC(C)=O,agar diffusion / agar,,,1 mg/mL,zone,1–5 mm
CN(C)C1=NC(=O)/C(=C/c2ccc([N+](=O)[O-])cc2)S1,broth dilution,,ATCC 26934,,MIC100,>250 µg/mL
O=C(/C=C/c1cc2ccccc2nc1Cl)c1ccccc1,,,ATCC 26934,,MIC,>50 µg/mL
C[C@H]1[C@H](O)[C@@H](C)/C=C/C=C/C=C/C=C/C=C/C=C/C=C/[C@H](O[C@@H]2O[C@H](C)[C@@H](O)[C@H](N)[C@@H]2O)C[C@@H]2O[C@](O)(C[C@@H](O)C[C@@H](O)CC[C@H](O)[C@@H](O)C[C@@H](O)CC(=O)O[C@H]1C)C[C@H](O)[C@H]2C(=O)O,,,60 isolates,,MIC90,1 µg/mL
CN(C)C1=NC(=O)/C(=C/c2ccc(F)cc2)S1,broth dilution,,ATCC 26934,,MIC100,>250 µg/mL
COC(=O)C(C(=O)OC)C(CC(=O)c1ccccc1)c1ccc2ccccc2c1,,,ATCC 26934,,MIC,>50 µg/mL
Cc1ccc(C(F)(F)C(F)(F)c2ccc(C(C)(C)N)cc2)cc1,,,MF5668,,MIC100,16 µg/mL
COc1cc(O)c2c(=O)c3c(C)cc(O)cc3oc2c1,resazurin,,CGMCC 3.5835,,EC50,>250 µM
CC1=C[C@H]2[C@@H](CC1)[C@](C)(O)CCCC2(C)C,agar diffusion,,,150 µg/mL,zone,10 mm
CC(=O)OC[C@H]1O[C@@H](Sc2nnc(-c3cccnc3)n2/N=C/c2ccccc2)[C@H](OC(C)=O)[C@@H](OC(C)=O)[C@@H]1OC(C)=O,agar diffusion / agar,,,2.5 mg/mL,zone,1–5 mm
COc1cc(O)c2c(c1)C1=C[C@@H](O)[C@H](O)C[C@]1(C)OC2=O,resazurin,,CGMCC 3.5835,,EC50,>250 µM
CN(C/C=C/C#CC(C)(C)C)Cc1cccc2ccccc12,agar diffusion / agar,,,1 mg/mL,zone,6–10 mm
CCc1nc(N)nc(N)c1-c1ccc(Cl)cc1,,,20 isolates,,Geometric mean MIC,>4 µg/mL
CC(=O)OC[C@H]1O[C@@H](n2[nH]c(-c3cccnc3)nc2=S)[C@H](OC(C)=O)[C@@H](OC(C)=O)[C@@H]1OC(C)=O,agar diffusion / agar,,,2.5 mg/mL,zone,1–5 mm
C[C@H]1[C@H](O)[C@@H](C)/C=C/C=C/C=C/C=C/C=C/C=C/C=C/[C@H](O[C@@H]2O[C@H](C)[C@@H](O)[C@H](N)[C@@H]2O)C[C@@H]2O[C@](O)(C[C@@H](O)C[C@@H](O)CC[C@H](O)[C@@H](O)C[C@@H](O)CC(=O)O[C@H]1C)C[C@H](O)[C@H]2C(=O)O,broth dilution,,ATCC 26934,,MIC100,0.5 µg/mL
Nc1ccc(S(=O)(=O)Nc2ncccn2)cc1,,,20 isolates,,Geometric mean MIC,39.2 µg/mL
OC[C@H]1O[C@@H](n2nc(-c3cccnc3)n(/N=C/c3ccccc3)c2=S)[C@H](O)[C@@H](O)[C@@H]1O,agar diffusion / agar,,,1 mg/mL,zone,1–5 mm
O=C(/C=C/c1ccccc1)c1ccccc1,,,ATCC 26934,,MIC,>50 µg/mL
OC[C@H]1O[C@@H](n2[nH]c(-c3cccnc3)nc2=S)[C@H](O)[C@@H](O)[C@@H]1O,agar diffusion / agar,,,2.5 mg/mL,zone,0 mm
COc1cc(O)c2c(=O)oc3c(c2c1)C(C)(O)CC3=O,resazurin,,CGMCC 3.5835,,EC50,229 µM